Measured values from several laboratories, pooled; numbers as filed in NIAID ChemDB.

ECn: concentration that inhibits the pathogen or its effect by n%. Neighbouring rows are from separate reports. Inhibition is in % at the dose shown (toxicity tests: loss of growth or viability). An empty or dashed field is not shown. ICn: concentration for n% inhibition. MIC bound comes from a single tested concentration. A number after MIC or MFC names an inhibition level or a share of isolates.

COc1cc(C[C@H](C)[C@H](C)Cc2ccc(O)c(O)c2)ccc1O ; kind: culture ; species: Candida albicans ; strain: CCC 129-2000 ; read by: broth dilution ; endpoint: MIC50 ; result: 31.25 µg/mL
Cc1cccc(-c2cncc(N3CCN(c4ccncc4)CC3)n2)c1 ; kind: target ; species: Cytomegalovirus ; protein: UL97 kinase ; endpoint: inhibition ; dose: 1 µM ; result: <50%
Nc1ccc(CC(Cc2ccc(N)cc2)C(=O)O)cc1 ; kind: culture ; species: Mycobacterium tuberculosis ; strain: H37Rv ; endpoint: MIC ; result: >100 µg/mL
N#Cc1ccccc1N1CCN(c2cncc(-c3ccc(Cl)cc3)n2)CC1 ; kind: target ; species: Cytomegalovirus ; protein: UL97 kinase ; endpoint: inhibition ; dose: 1 µM ; result: <50%
CCN(CC)C(=O)c1cccc([N+](=O)[O-])c1C(=O)N(CC)CC ; kind: culture ; species: Mycobacterium tuberculosis ; strain: H37Rv ; endpoint: MIC ; result: >100 µg/mL
Cc1cc(-c2ccc(N=Nc3ccc4c(S(=O)(=O)O)cc(S(=O)(=O)O)c(N)c4c3O)c(C)c2)ccc1N=Nc1ccc2c(S(=O)(=O)O)cc(S(=O)(=O)O)c(N)c2c1O ; kind: culture ; species: Adenovirus ; strain: TYPE 3 ; cells: Human amnion AV3 cells ; read by: cytopathic effect ; endpoint: inhibition ; dose: 5 µg/mL ; result: 0%
CC(=O)c1ccccc1-c1cncc(N2CCN(c3cccc(C(F)(F)F)c3)CC2)n1 ; kind: target ; species: Cytomegalovirus ; protein: UL97 kinase ; endpoint: IC50 ; result: <100 µM
Nc1ccc2c(O)cc(S(=O)(=O)[O-])cc2c1S(=O)(=O)[O-] ; kind: culture ; species: Herpes simplex virus ; cells: Human conjunctiva cells ; read by: cytopathic effect ; endpoint: inhibition ; dose: 5 µg/mL ; result: 0%
NNc1ccc2cccc(O)c2n1 ; kind: culture ; species: Mycobacterium tuberculosis ; strain: H37Rv ; read by: BACTEC ; endpoint: MIC ; result: ≥12.5 µg/mL
O=[N+]([O-])c1cc([N+](=O)[O-])c2ccc(S(=O)(=O)O)cc2c1O ; kind: culture ; species: Herpes simplex virus ; cells: Human conjunctiva cells ; read by: cytopathic effect ; endpoint: inhibition ; dose: 10 µg/mL ; result: 20%
C#CC[C@@H](C(=O)N[C@H](/C=C/C(=O)OCC)C[C@@H]1CCNC1=O)n1cccc(NC(=O)c2cc(C)on2)c1=O ; kind: culture ; species: Rhinovirus ; strain: Clinical isolate 119 (serotype 39) ; cells: H1-HELA ; read by: cytopathic effect / XTT ; endpoint: EC50 ; result: 0.064 µM
CCOC(=O)C1CSC(C)C1=O ; kind: culture ; species: Mycobacterium tuberculosis ; strain: H37Rv ; endpoint: MIC ; result: >100 µg/mL
CCCNCC(=O)Nc1ccc(C)c(Cl)c1 ; kind: culture ; species: Mycobacterium tuberculosis ; strain: H37Rv ; cells: VERO ; read by: BACTEC ; endpoint: MIC ; result: 12.5 µg/mL
CCC(C)(C)c1ccc(Oc2cccc(C(=O)Nc3c(C)ccc(C)c3O)c2)cc1 ; kind: culture ; species: Mycobacterium tuberculosis ; strain: H37Rv ; endpoint: MIC ; result: >100 µg/mL
O=S(=O)([O-])c1ccc2c(S(=O)(=O)[O-])cc(S(=O)(=O)[O-])cc2c1 ; kind: culture ; species: Rhinovirus ; cells: Human embryonic lung cells ; read by: cytopathic effect ; endpoint: inhibition ; dose: 50 µg/mL ; result: 15%
CC(C)(C)c1ccc(Nc2ccc(C(C)(C)C)cc2)cc1 ; kind: culture ; species: Mycobacterium tuberculosis ; strain: H37Rv ; endpoint: MIC ; result: >100 µg/mL
O=C=NCCCCCCN1C(=O)N2C(c3ccccc3)N(CCCCCCN=C=O)C(=O)N2C1c1ccccc1 ; kind: culture ; species: Mycobacterium tuberculosis ; strain: H37Rv ; read by: resazurin ; endpoint: MIC bound ; result: >6.25 µg/mL
Fc1ccccc1N1CCN(c2cncc(-c3cc(C(F)(F)F)cc(C(F)(F)F)c3)n2)CC1 ; kind: target ; species: Cytomegalovirus ; protein: UL97 kinase ; endpoint: IC50 ; result: <100 µM
O=C(O)Cc1cccc2ccccc12 ; kind: culture ; species: Mycobacterium tuberculosis ; strain: H37Rv ; endpoint: MIC ; result: >100 µg/mL
CC(=O)c1ccc(-c2cncc(N3CCN(c4ccccc4F)CC3)n2)cc1 ; kind: target ; species: Cytomegalovirus ; protein: UL97 kinase ; endpoint: IC50 ; result: <10 µM
O=[N+]([O-])c1cnc(Sc2cncc[n+]2[O-])s1 ; kind: culture ; species: Mycobacterium tuberculosis ; strain: H37Rv ; read by: resazurin ; endpoint: MIC ; result: 0.78 µg/mL
O=C(c1ccccc1)c1cc(Cl)ccc1Cl ; kind: culture ; species: Mycobacterium tuberculosis ; strain: H37Rv ; endpoint: MIC ; result: 25 µg/mL
CC(C)c1ccc(-c2cncc(N3CCN(c4ccncc4)CC3)n2)cc1 ; kind: target ; species: Cytomegalovirus ; protein: UL97 kinase ; endpoint: IC50 ; result: <1 µM
O/N=C(\c1ccccc1)C1(c2ccccc2)/C(=N/O)c2cc(-c3ccccc3)c(-c3ccccc3)cc21 ; kind: culture ; species: Mycobacterium tuberculosis ; strain: H37Rv ; endpoint: MIC ; result: >100 µg/mL
C=CCN(CC=C)CCNc1cc(C)nc(Nc2nc3ccc(Cl)cc3[nH]2)n1 ; kind: culture ; species: Mycobacterium tuberculosis ; strain: H37Rv ; read by: BACTEC ; endpoint: inhibition ; dose: 6.25 µg/mL ; result: 74%
Fc1ccc(N2CCCCC2)c(NC(=S)c2ccncc2)c1 ; kind: host protein ; protein: MOS ; read by: kinase activity ; endpoint: inhibition ; dose: 10 µM ; result: 6.7%
NS(=O)(=O)c1cccs1 ; kind: culture ; species: Mycobacterium tuberculosis ; strain: H37Rv ; endpoint: MIC ; result: >100 µg/mL
O=C1C(c2[nH]c3ccc(S(=O)(=O)O)cc3c2O)=Nc2ccc(S(=O)(=O)O)cc21 ; kind: culture ; species: Adenovirus ; strain: TYPE 3 ; cells: Human embryonic lung cells ; read by: cytopathic effect ; endpoint: inhibition ; dose: 5 µg/mL ; result: 0%
Cc1cccc(Nc2nc(N)nc(N)c2N=O)c1 ; kind: culture ; species: Mycobacterium tuberculosis ; strain: H37Rv ; read by: BACTEC ; endpoint: inhibition ; dose: 12.5 µg/mL ; result: 31%
C=CCc1ccc(O)c(OC)c1 ; kind: culture ; species: Candida tropicalis ; strain: 3013 ; read by: turbidity ; endpoint: MIC90 ; result: 480 µg/mL
C[C@@H]1CN(C(=S)Nc2ccccc2)[C@@H](C)CN1C=O ; kind: culture ; species: Mycobacterium tuberculosis ; strain: H37Rv ; read by: BACTEC ; endpoint: inhibition ; dose: 12.5 µg/mL ; result: 10%
Fc1ccccc1N1CCN(c2cncc(-c3ccc(C(F)(F)F)cc3)n2)CC1 ; kind: target ; species: Cytomegalovirus ; protein: UL97 kinase ; endpoint: inhibition ; dose: 1 µM ; result: <50%
O=C(O)c1cc(S(=O)(=O)[O-])ccc1O ; kind: culture ; species: Rhinovirus ; cells: Human embryonic lung cells ; read by: cytopathic effect ; endpoint: inhibition ; dose: 50 µg/mL ; result: 0%
O=C(O)c1cc(C(=O)O)cc(C(=O)O)c1 ; kind: culture ; species: Mycobacterium tuberculosis ; strain: H37Rv ; endpoint: MIC ; result: >100 µg/mL
CC(=O)c1c(CO[N+](=O)[O-])n([O-])c2ccccc2[n+]1=O ; kind: culture ; species: Mycobacterium tuberculosis ; strain: H37Rv ; read by: BACTEC ; endpoint: MIC ; result: ≥12.5 µg/mL
CCOC(=O)c1cc(=O)n(C)c2ccc(OC)cc12 ; kind: culture ; species: Mycobacterium tuberculosis ; strain: H37Rv ; endpoint: MIC ; result: 100 µg/mL
CN(C)CCn1c(=O)c2ccc(NCCNCCO)c3c(=O)c4ccccc4n(c1=O)c23.Cl ; kind: culture ; species: Mycobacterium tuberculosis ; strain: H37Rv ; read by: resazurin ; endpoint: inhibition ; dose: 6.25 µg/mL ; result: 3%
CC(=O)Nc1ccc(S(=O)(=O)N(CCO)c2ccccc2)cc1 ; kind: culture ; species: Mycobacterium tuberculosis ; strain: H37Rv ; endpoint: MIC ; result: >100 µg/mL
O=c1cc(-c2ccccc2)nc2cc(-c3ccco3)[nH]n12 ; kind: culture ; species: Mycobacterium tuberculosis ; strain: H37Rv ; read by: resazurin ; endpoint: inhibition ; dose: 6.25 µg/mL ; result: 5%
Cc1ccc(N2CCN(c3cncc(-c4cccc(C)c4)n3)CC2)cc1 ; kind: target ; species: Cytomegalovirus ; protein: UL97 kinase ; endpoint: inhibition ; dose: 10 µM ; result: >15%
O=C1C=CC(=Nc2cc(Cl)c(O)c(Cl)c2)C=C1 ; kind: culture ; species: Mycobacterium tuberculosis ; strain: H37Rv ; read by: BACTEC ; endpoint: inhibition ; dose: 12.5 µg/mL ; result: 22%
Ic1cccc2c1sc1ccccc12 ; kind: culture ; species: Mycobacterium tuberculosis ; strain: H37Rv ; endpoint: MIC ; result: >100 µg/mL
O=c1c2c3c(sc2nc2n1N=C(c1ccc(Br)cc1)CS2)CCCC3 ; kind: culture ; species: Mycobacterium tuberculosis ; strain: H37Rv ; read by: resazurin ; endpoint: MIC bound ; result: >6.25 µg/mL
O=C1C(=O)C(Br)(Br)C(Br)=C1Br ; kind: culture ; species: Mycobacterium tuberculosis ; strain: H37Rv ; endpoint: MIC ; result: 100 µg/mL
O=C(O)c1cc(=O)n(CCCCCCn2c(=O)cc(C(=O)O)[nH]c2=O)c(=O)[nH]1 ; kind: culture ; species: Mycobacterium tuberculosis ; strain: H37Rv ; read by: resazurin ; endpoint: MIC bound ; result: >6.25 µg/mL
Cc1ccc(-c2cncc(N3CCN(c4ccccn4)CC3)n2)cc1 ; kind: target ; species: Cytomegalovirus ; protein: UL97 kinase ; endpoint: inhibition ; dose: 1 µM ; result: <50%
Cc1ccc(NC(=S)NC(=O)C(C)Oc2ccccc2)cc1Cl ; kind: culture ; species: Mycobacterium tuberculosis ; strain: H37Rv ; cells: VERO ; endpoint: MIC ; result: 12.5 µg/mL
CN(C)c1ccc(P(O)c2ccc(N(C)C)cc2)cc1 ; kind: culture ; species: Mycobacterium tuberculosis ; strain: H37Rv ; endpoint: MIC ; result: >100 µg/mL
FC(F)(F)c1[nH]nc(-c2cc3ccccc3o2)c1N=NN1CCOCC1 ; kind: culture ; species: Mycobacterium tuberculosis ; strain: H37Rv ; read by: BACTEC ; endpoint: MIC bound ; result: ≤12.5 µg/mL
CCO/N=C/c1ccc(OCCC2CCN(c3ccc(C)nn3)CC2)cc1 ; kind: culture ; species: Rhinovirus ; strain: FO2-2317 (ICAM-1 receptor group 68) ; cells: KB ; read by: neutral red ; endpoint: EC50 ; result: 0.038 µM
O=C1OCC2(CO)SC(c3ccccc3)NC12 ; kind: culture ; species: Mycobacterium tuberculosis ; strain: H37Rv ; read by: BACTEC ; endpoint: inhibition ; dose: 12.5 µg/mL ; result: 15%
Oc1ccccc1CNCCNCc1ccccc1O ; kind: culture ; species: Mycobacterium tuberculosis ; strain: H37Rv ; endpoint: MIC ; result: >100 µg/mL
Cc1cc(N(CCC#N)S(C)(=O)=O)ccc1C=Nc1ccc(C(=O)N[N+]2=C(c3cc([N+](=O)[O-])ccc3Cl)NC(=O)/C2=C/c2ccc(N(CCC#N)CCC#N)cc2C)cc1 ; kind: culture ; species: Mycobacterium tuberculosis ; strain: H37Rv ; read by: BACTEC ; endpoint: inhibition ; dose: 12.5 µg/mL ; result: 13%
O=C(O)c1ccc(I)cc1O ; kind: culture ; species: Mycobacterium tuberculosis ; strain: H37Rv ; endpoint: MIC ; result: 50 µg/mL
O=C1c2cccnc2-c2nccc3c2c1nc1ccccc13 ; kind: culture ; species: Mycobacterium tuberculosis ; strain: H37Rv ; read by: BACTEC ; endpoint: MIC ; result: 0.1 µg/mL
CC(=O)Nc1cccc2ccc(O)cc12 ; kind: culture ; species: Mycobacterium tuberculosis ; strain: H37Rv ; endpoint: MIC ; result: 100 µg/mL
S=C(S)N1CCN(c2cccc(Cl)c2)CC1 ; kind: culture ; species: Mycobacterium tuberculosis ; strain: H37Rv ; read by: resazurin ; endpoint: inhibition ; dose: 6.25 µg/mL ; result: 12%
O=C(O)CCSc1ccccc1 ; kind: culture ; species: Mycobacterium tuberculosis ; strain: H37Rv ; endpoint: MIC ; result: >100 µg/mL

The first 4 rows once more:

| compound | kind | species | strain | cells | protein | read by | endpoint | dose | result |
|---|---|---|---|---|---|---|---|---|---|
| COc1cc(C[C@H](C)[C@H](C)Cc2ccc(O)c(O)c2)ccc1O | culture | Candida albicans | CCC 129-2000 | - | - | broth dilution | MIC50 | - | 31.25 µg/mL |
| Cc1cccc(-c2cncc(N3CCN(c4ccncc4)CC3)n2)c1 | target | Cytomegalovirus | - | - | UL97 kinase | - | inhibition | 1 µM | <50% |
| Nc1ccc(CC(Cc2ccc(N)cc2)C(=O)O)cc1 | culture | Mycobacterium tuberculosis | H37Rv | - | - | - | MIC | - | >100 µg/mL |
| N#Cc1ccccc1N1CCN(c2cncc(-c3ccc(Cl)cc3)n2)CC1 | target | Cytomegalovirus | - | - | UL97 kinase | - | inhibition | 1 µM | <50% |